Measured values from several laboratories, pooled; numbers as filed in NIAID ChemDB.

Common to all: growth or infection tests; organism: Mycobacterium tuberculosis

MIC bound comes from a single tested concentration. MIC50, MIC90 and the like: level of inhibition, or share of isolates inhibited. Blank or dashed fields: not listed here. Rows are shuffled and stem from different studies. ECn: concentration that inhibits the pathogen or its effect by n%. Percent inhibition refers to the dose given; in toxicity tests it is the harm to the cells.

SMILES	tested at	read by	changes	strain or isolate	measure	result
O=C1C[C@@H](c2ccc(O)cc2)Oc2cc(O)c(-c3c(O)cc4c(c3O)C(=O)C[C@@H](c3ccc(O)cc3)O4)c(O)c21	12.5 µg/mL	-	-	H37Rv	inhibition	0%
Cc1ccc(/C=C/C(=O)N2C/C(=C\c3ccccc3)C(=O)/C(=C/c3ccccc3)C2)cc1	6.25 µg/mL	-	-	H37Rv	inhibition	8%
O=C(Nc1ccc(Br)cc1)c1cnccn1	-	-	-	INH-r	MIC	>12.5 µg/mL
CCCCCCCCCCCCCCCCCCCC[C@@H](O)C(=O)N[C@@H](CO)[C@H](O)[C@H](O)CCCCCCCCCCCCCC	-	-	-	H37Rv	MIC	127.8 µg/mL
NNc1ccc2nnc(Cl)n2n1	12.5 µg/mL	BACTEC	-	H37Rv	inhibition	0%
Clc1ccc(-n2ncc(C(c3ccccc3)n3ccnc3)c2-c2ccccc2)cc1	-	-	-	ATCC 35822 (isoniazid-resistant)	MIC50	≥100 µM
CC(C)Cn1c(-c2ccc(F)cc2)cs/c1=N\NC(=O)COc1cnccn1	-	-	-	H37Rv	MIC	6.9 µg/mL
COc1ccccc1O	-	-	-	H37Rv	MIC	>128 µg/mL
C=CCOc1cc2oc3cc(OCC=C)c(OC)c(CCC(C)C)c3c(=O)c2c(O)c1CCC(C)C	-	resazurin	-	H37Ra	MIC	>200 µg/mL
COc1cc(OC)c2c(c1)OC(c1cc(OC)c(OC)c(OC)c1)CC2=O	12.5 µg/mL	-	-	-	inhibition	0%
CC[C@H](CC[C@@H](C)[C@H]1CC[C@H]2[C@@H]3C[C@@H](O)C4=CC(=O)CC[C@]4(C)[C@H]3CC[C@]12C)C(C)C	-	-	-	H37Rv	MIC	4.2 µg/mL
CO[C@H]1/C=C/O[C@@]2(C)Oc3c(C)c(O)c4c(O)c(c(/C=N/N=C/N(C)C)c(O)c4c3C2=O)NC(=O)/C(C)=C\C=C\[C@H](C)[C@H](O)[C@@H](C)[C@@H](O)[C@@H](C)[C@H](OC(C)=O)[C@@H]1C	-	-	-	H37Rv	MIC	0.02 µg/mL
CC1=C2C(=CO[C@H](C)[C@H]2C)C(=O)C(C(=O)O)=C1O	100 µg/mL	-	-	49	inhibition	65%
C/C=C1/C(=O)O[C@]23C=C[C@@H]4C(C(=O)OC)=CO[C@H](O[C@@H]12)[C@@H]43	-	BACTEC	-	H37Rv	MIC bound	≤12.8 µg/mL
Fc1ccc(-c2c(C(c3ccccc3)n3ccnc3)cnn2-c2ccc(F)cc2)cc1	-	-	-	ATCC 35837 (ethambutol-resistant)	MIC50	≥100 µM
CO[C@H]1/C=C/O[C@@]2(C)Oc3c(C)c(O)c4c(O)c(c(/C=N/N=C/N5CCCCCC5)c(O)c4c3C2=O)NC(=O)/C(C)=C\C=C\[C@H](C)[C@H](O)[C@@H](C)[C@@H](O)[C@@H](C)[C@H](OC(C)=O)[C@@H]1C	-	-	-	H37Rv	MIC	0.04 µg/mL
Cc1ccc2c(c1)c(=O)c1c(NCCN(C)C)ccc3nnn2c31	12.5 µg/mL	BACTEC	-	H37Rv	inhibition	99%
O=C(/C=C/C(=O)N1C/C(=C\c2ccccc2)C(=O)/C(=C/c2ccccc2)C1)Nc1ccccc1	-	-	-	H37Rv	EC50	>6.25 µg/mL
CC(=O)N1N=C(c2ccc(NC(=O)C(c3ccc(Cl)cc3)C(C)C)cc2)CC1c1ccccc1Cl	6.25 µg/mL	BACTEC	-	H37Rv	inhibition	0%
O=C(COc1cnccn1)N/N=c1\scc(-c2ccccc2)n1-c1ccc(Cl)cc1	-	-	-	H37Rv	MIC	12.5 µg/mL
COc1cc(-c2oc3cc(O)cc(O)c3c(=O)c2O[C@@H]2O[C@H](CO[C@@H]3O[C@@H](C)[C@H](O)[C@@H](O)[C@H]3O)[C@@H](O)[C@H](O)[C@H]2O)ccc1O	-	-	-	H37Rv	MIC	>128 µg/mL
CS(=O)(=O)NC1=NCCN1[N+](=O)[O-]	-	BACTEC	-	H37Rv	MIC	12.5 µg/mL
COc1cc(C2C=C(c3ccc(NC(=O)C(c4ccc(Cl)cc4)C(C)C)cc3)OC(N)=C2C#N)ccc1O	6.25 µg/mL	BACTEC	-	H37Rv	inhibition	11%
O=C1/C(=C/c2ccccc2)CN(C(=O)c2ccc(/C=C/C(=O)c3ccc(Cl)cc3)cc2)C/C1=C\c1ccccc1	-	-	-	H37Rv	EC50	>6.25 µg/mL
O=C(c1ccccc1)N1N=C(c2ccc(Cl)cc2)CC1c1cn(-c2ccccc2)nc1-c1ccc(F)cc1	-	BACTEC / radiometric	-	H37Rv	EC90	>192 µM
CC(C)Cc1cn(O)c2nc(=N)nc(N)c-2n1	-	BACTEC	-	H37Rv	MIC bound	>12.5 µg/mL
CCCCOc1cc2oc3cc(OCCCC)c(C(C)=O)c(CCC(C)C)c3c(=O)c2c(O)c1CCC(C)C	-	resazurin	-	H37Ra	MIC	>200 µg/mL
S=C(Nc1ccccc1)Nc1ccccc1SC(/C=C/NNC1=NC(c2ccccc2)C(c2ccccc2)=NN1)c1ccccc1	-	BACTEC	-	H37Rv	MIC bound	>12.5 µg/mL
Fc1ccc(-c2c(C(c3ccccc3)n3ccnc3)cnn2-c2ccccc2)cc1	-	-	-	ATCC 35837 (ethambutol-resistant)	MIC90	≥100 µM
S=C(S)NN1CCCC1	-	-	-	CS-R	MIC	1.6 µg/mL
Nc1ccc(O)c(C(=O)/C=C/c2ccccc2)c1	-	-	-	H37Rv	EC50	>12.5 µg/mL
CC(=O)N1N=C(c2ccc(NC(=O)C(c3ccc(Cl)cc3)C(C)C)cc2)CC1c1ccccc1	-	BACTEC	-	H37Rv	MIC	3.13 µg/mL
CCCOc1cc2oc3cc(O)c(CCC(C)C)c(O)c3c(=O)c2c(CCC(C)C)c1OC	-	resazurin	MDR	M22	MIC	6.25 µg/mL
CC1C(=O)c2cc3c(cc2CCN(C)Cc2c1ccc1c2OCO1)OCO3	-	BACTEC	-	H37Rv	MIC	≥12.8 µg/mL
CS/C(N)=N\N=C\c1ccnnc1	-	-	-	ATCC 35822 (isoniazid-resistant)	MIC	>100 µg/mL
CNC(=O)OCc1c(C)oc(-c2ccccc2)c1COC(=O)NC	12.5 µg/mL	BACTEC	-	H37Rv	inhibition	34%
O=C1/C(=C/c2ccccc2)CN(C(=O)c2ccccc2)C/C1=C\c1ccccc1	-	-	-	H37Rv	EC50	>6.25 µg/mL
COc1ccc(-c2cs/c(=N\NC(=O)COc3cnccn3)n2-c2ccc(Cl)cc2[N+](=O)[O-])cc1	-	-	-	H37Rv	MIC	8 µg/mL
O=NN1N=C(c2ccccc2O)CC1c1cn(-c2ccccc2)nc1-c1ccc(F)cc1	-	BACTEC / radiometric	-	H37Rv	EC90	>234 µM
COc1cc(OC)c2c(c1)OC(c1cc(OC)c(OC)c(OC)c1)C(Br)(Br)C2=O	12.5 µg/mL	-	-	H37Rv	inhibition	16%
O=C(c1ccccc1)N1N=C(c2ccc([N+](=O)[O-])cc2)CC1c1cn(-c2ccccc2)nc1-c1ccc(F)cc1	-	BACTEC / radiometric	-	H37Rv	EC90	>187 µM
C[C@@H]1O[C@@H](OC[C@H]2O[C@@H](Oc3c(-c4ccc(O)c(O)c4)oc4cc(O)cc(O)c4c3=O)[C@H](O)[C@@H](O)[C@@H]2O)[C@H](O)[C@H](O)[C@H]1O	-	-	-	H37Rv	MIC	>128 µg/mL
COc1ccc2c(c1)[n+]([O-])c(/C(C)=N/NC(=O)CC#N)c[n+]2[O-]	-	BACTEC	-	H37Rv	MIC	≥12.5 µg/mL
CC[C@@H](CO)NCCN[C@@H](CC)CO	-	resazurin	MDR	M16	MIC	>8 µg/mL
Cc1ccc(-c2cs/c(=N\NC(=O)COc3cnccn3)n2CC(C)C)cc1	-	-	-	H37Rv	MIC	8.2 µg/mL
COc1cc(C2CC(c3ccc(NC(=O)C(c4ccc(Cl)cc4)C(C)C)cc3)=NN2C(C)=O)ccc1O	6.25 µg/mL	BACTEC	-	H37Rv	inhibition	26%
O=C(/C=C/C(=O)N1C/C(=C\c2ccccc2)C(=O)/C(=C/c2ccccc2)C1)Nc1ccc([N+](=O)[O-])cc1	-	-	-	H37Rv	EC50	<6.25 µg/mL
Nc1nc(-c2ccc(Cl)cc2)cc(-c2cn(-c3ccccc3)nc2-c2ccc(F)cc2)n1	-	BACTEC / radiometric	-	H37Rv	EC90	>226.3 µM
COc1c2c(nc3ccccc13)-c1cc3c(c(=O)n1C2)COC(=O)C3(O)CC(=O)N1CCOCC1	-	resazurin	-	H37Rv	MIC bound	>6.25 µg/mL
CCCCN(C)/C=N/N=C/c1c2c(O)c3c(O)c(C)c4c(c3c1O)C(=O)[C@@](C)(O/C=C/[C@H](OC)[C@@H](C)[C@@H](OC(C)=O)[C@H](C)[C@H](O)[C@H](C)[C@@H](O)[C@@H](C)/C=C/C=C(/C)C(=O)N2)O4	-	-	-	H37Rv	MIC	0.04 µg/mL
O=C1/C(=C/c2ccccc2)CN(C(=O)/C=C/c2ccc(Cl)c(Cl)c2)C/C1=C\c1ccccc1	-	-	-	H37Rv	EC50	>6.25 µg/mL
C[C@@H]1Oc2nc([N+](=O)[O-])cn2C[C@@H]1OCc1ccc(OC(F)(F)F)cc1	-	absorbance	-	H37Rv-5A1	MIC	>100 µM
Clc1ccc(-c2c(C(c3ccccc3)n3ccnc3)cnn2-c2ccccc2)cc1	-	-	-	ATCC 35828 (pyrazinamide-resistant)	MIC90	≥100 µM
CO/C(=N\N=C\c1ccc(Cl)c(Cl)c1)c1ccncc1	0.5 µM	BACTEC	-	-	inhibition	0%
COc1cc2oc3cc(O)c(CCC(C)C)c(O)c3c(=O)c2c(CCC(C)C)c1OC	-	resazurin	-	H37Rv	MIC	0.78 µg/mL
CC(C)C(C(=O)Nc1ccc(C2=CC(c3ccc(N(C)C)cc3)C(C#N)=C(N)O2)cc1)c1ccc(Cl)cc1	6.25 µg/mL	BACTEC	-	H37Rv	inhibition	0%
Cc1cc(N=Nc2ccc(NC(=O)c3ccc(NC(=O)c4ccccc4)cc3)c3ccc(S(=O)(=O)O)cc23)ccc1N=Nc1ccc2c(O)cc(S(=O)(=O)O)cc2c1	-	BACTEC	-	H37Rv	MIC bound	>12.5 µg/mL
CS/C(N)=N\N=C\c1cccnc1	-	-	-	H37Rv (ATCC 27294)	MIC	>100 µg/mL
CC(C)C(C(=O)Nc1ccc(C2=CC(c3ccc(O)cc3)C(C#N)=C(N)O2)cc1)c1ccc(Cl)cc1	6.25 µg/mL	BACTEC	-	H37Rv	inhibition	26%
Cc1ccc(Nc2ccc(O)c3c2C(=O)c2ccccc2C3=O)cc1	12.5 µg/mL	BACTEC	-	H37Rv	inhibition	-21%
CCCCCCCCCCCCCCCCCCCCCC[C@@H](O)C(=O)N[C@@H](CO)[C@H](O)[C@H](O)CCCCCCCCCCCCCC	-	-	-	H37Rv	MIC	128.2 µg/mL
Cc1cc[n+](CC(=O)NN)cc1.[Cl-]	-	BACTEC	-	H37Rv	MIC bound	>12.5 µg/mL
CN[C@@H]1[C@H](O[C@H]2[C@H](O[C@H]3[C@H](O)[C@@H](O)[C@H](N=C(N)N)[C@@H](O)[C@@H]3N=C(N)N)O[C@@H](C)[C@]2(O)C=O)O[C@@H](CO)[C@H](O)[C@H]1O	-	-	-	ATCC 35828 (pyrazinamide-resistant)	MIC90	0.3 µM
NNC(=O)C(=O)N/N=C1\CCCC1C(=O)CCC(=O)Nc1ccc(Cl)cc1	12.5 µg/mL	BACTEC	-	H37Rv	inhibition	6%
Clc1ccc(-c2c(C(c3ccccc3)n3ccnc3)cnn2-c2ccc(Cl)cc2Cl)cc1	-	-	-	ATCC 35822 (isoniazid-resistant)	MIC50	91.7 µM
COC1CCC(OC)(C(=O)NN)O1.COC1CCC(OC)(C(=O)NN)O1	12.5 µg/mL	BACTEC	-	H37Rv	inhibition	-2%
O=C1/C(=C\c2ccccc2)CN(C(=O)c2ccc(/C=C/C(=O)c3ccc(Cl)c(Cl)c3)cc2)C/C1=C/c1ccccc1	6.25 µg/mL	-	-	H37Rv	inhibition	0%
CCN(/C=N/N=C/c1c2c(O)c3c(O)c(C)c4c(c3c1O)C(=O)[C@@](C)(O/C=C/[C@H](OC)[C@@H](C)[C@@H](OC(C)=O)[C@H](C)[C@H](O)[C@H](C)[C@@H](O)[C@@H](C)/C=C/C=C(/C)C(=O)N2)O4)CC	-	-	-	H37Rv	MIC	0.02 µg/mL
COc1cc2c(c3c1c(=O)c1ccccc1n3C)C=C([N+](=O)[O-])C(C)(C)O2	12.5 µg/mL	BACTEC	-	H37Rv	inhibition	24%
CC1COc2c(N3CCN(C)CC3)c(F)cc3c(=O)c(C(=O)O)cn1c23	-	-	-	ATCC 35828 (pyrazinamide-resistant)	MIC50	0.9 µM
NC(=O)c1ccncc1	-	resazurin	-	CF45	MIC	>25 µg/mL
CN=c1ncc2nc(-c3ccccc3)c(-c3ccccc3)n(C)c-2n1	12.5 µg/mL	BACTEC	-	H37Rv	inhibition	25%
Clc1ccccc1-c1c(C(c2ccccc2)n2ccnc2)cnn1-c1ccccc1	-	-	-	ATCC 35837 (ethambutol-resistant)	MIC90	>100 µM

Again, the opening 9 rows:

SMILES | tested at | read by | changes | strain or isolate | measure | result
O=C1C[C@@H](c2ccc(O)cc2)Oc2cc(O)c(-c3c(O)cc4c(c3O)C(=O)C[C@@H](c3ccc(O)cc3)O4)c(O)c21 | 12.5 µg/mL | - | - | H37Rv | inhibition | 0%
Cc1ccc(/C=C/C(=O)N2C/C(=C\c3ccccc3)C(=O)/C(=C/c3ccccc3)C2)cc1 | 6.25 µg/mL | - | - | H37Rv | inhibition | 8%
O=C(Nc1ccc(Br)cc1)c1cnccn1 | - | - | - | INH-r | MIC | >12.5 µg/mL
CCCCCCCCCCCCCCCCCCCC[C@@H](O)C(=O)N[C@@H](CO)[C@H](O)[C@H](O)CCCCCCCCCCCCCC | - | - | - | H37Rv | MIC | 127.8 µg/mL
NNc1ccc2nnc(Cl)n2n1 | 12.5 µg/mL | BACTEC | - | H37Rv | inhibition | 0%
Clc1ccc(-n2ncc(C(c3ccccc3)n3ccnc3)c2-c2ccccc2)cc1 | - | - | - | ATCC 35822 (isoniazid-resistant) | MIC50 | ≥100 µM
CC(C)Cn1c(-c2ccc(F)cc2)cs/c1=N\NC(=O)COc1cnccn1 | - | - | - | H37Rv | MIC | 6.9 µg/mL
COc1ccccc1O | - | - | - | H37Rv | MIC | >128 µg/mL
C=CCOc1cc2oc3cc(OCC=C)c(OC)c(CCC(C)C)c3c(=O)c2c(O)c1CCC(C)C | - | resazurin | - | H37Ra | MIC | >200 µg/mL